Pooled drug test results. Numbers come from NIAID ChemDB, via PubChem.

Shared fields: tests in culture; species: HIV-1; cells: MT-2; endpoint: fold resistance

Rows are shuffled and stem from different studies.

{"structure": "Cc1cn([C@H]2C=C[C@@H](CO)O2)c(=O)[nH]c1=O", "mutations": "RT-K103N", "read by": "p24", "value": "3.6"}
{"structure": "CC(C)=CCN1Cc2cccc3[nH]c(=S)n(c23)C[C@@H]1C", "strain": "R82150 (RT-L100I)", "mutations": "RT-L100I", "read by": "cytopathic effect", "value": ">187.5"}
{"structure": "Nc1nc(N)c2ncn([C@H]3CO[C@@H](CO)O3)c2n1", "mutations": "RT-M41L K70R T215Y K219Q", "value": "1.94"}
{"structure": "CCN(c1nc(F)ccc1NC(C)(C)C)C1CCN(C(=O)c2cc3cc(NC(=O)N4CCN(C)CC4)ccc3[nH]2)CC1", "strain": "IIIB", "mutations": "R41K", "read by": "p24 / ELISA", "value": "1.4"}
{"structure": "Nc1ccn([C@H]2CC[C@@H](CO)O2)c(=O)n1", "strain": "HXB2D (RT D67N K70R T215Y)", "mutations": "RT-D67N K70R T215Y", "value": "1.58"}
{"structure": "Cc1cn([C@H]2C[C@H](N=[N+]=[N-])[C@@H](CO)O2)c(=O)[nH]c1=O", "strain": "P119S(RT-P119S)", "mutations": "RT-P119S", "read by": "p24", "value": "0.9"}
{"structure": "Cn1c2ccccc2c2c1cc(C#N)c(=O)n2-c1ccc([N+](=O)[O-])cc1", "strain": "HXB2", "mutations": "TAM2 (D67N K70R T215F K219Q)", "value": "4.8"}
{"structure": "Cc1cn([C@H]2C[C@H](N=[N+]=[N-])[C@@H](CO)O2)c(=O)[nH]c1=O", "strain": "LAI", "mutations": "RT-D67N K70R T215Y K219Q L74V", "read by": "p24", "value": "6.3"}
{"structure": "Nc1nc(N)c2ncn([C@H]3CO[C@@H](CO)O3)c2n1", "mutations": "RT-K65R", "read by": "cytopathic effect / XTT", "value": "6"}
{"structure": "Cc1cn([C@H]2C=C[C@@H](CO)O2)c(=O)[nH]c1=O", "strain": "Site-directed mutant", "mutations": "RT-K65R M184V", "read by": "cytopathic effect / XTT", "value": "1.4"}
{"structure": "CC(C)(C)OC(=O)N[C@@H](Cc1ccccc1)[C@H](O)CNC[C@@H](O)[C@H](Cc1ccc(OCC(=O)N2CCOCC2)cc1)NC(=O)OC(C)(C)C", "strain": "NL4-3", "mutations": "PR-A71T V82A", "read by": "p24", "value": "8"}
{"structure": "O=c1[nH]cnc2c1ncn2[C@H]1CC[C@@H](CO)O1", "strain": "NL4-3", "mutations": "RT-I178L T215Y", "read by": "p24", "value": "2.125"}
{"structure": "C[C@H](Cn1cnc2c(N)ncnc21)OCP(=O)(O)O", "strain": "HXB2D (RT D67N K70R T215Y)", "mutations": "RT-D67N K70R T215Y", "value": "2.4"}
{"structure": "Nc1ccn([C@H]2CC[C@@H](CO)O2)c(=O)n1", "strain": "HxB2-MT 65 (RT-K65R", "mutations": "RT-K65R", "read by": "p24 / ELISA", "value": "4.43"}
{"structure": "C[C@H](Cn1cnc2c(N)ncnc21)OCP(=O)(O)O", "strain": "Site-directed mutant", "mutations": "RT-K65R", "read by": "cytopathic effect / XTT", "value": "3.3"}
{"structure": "CC(C)CN(C[C@@H](O)[C@H](Cc1ccccc1)NC(=O)[C@H](CC(N)=O)NC(=O)c1ccc2ccccc2n1)C(=O)NC(C)(C)C", "strain": "RF", "mutations": "PR-G48V I54V A71T V82A", "value": "33.8"}
{"structure": "Cc1ccnc2c1NC(=O)c1cccnc1N2C1CC1", "strain": "R82150 (RT-L100I)", "mutations": "RT-L100I", "read by": "cytopathic effect", "value": "10"}
{"structure": "Nc1cccc(CN2C(=O)N(Cc3cccc(N)c3)[C@H](Cc3ccccc3)[C@H](O)[C@@H](O)[C@H]2Cc2ccccc2)c1", "strain": "Thai (PR L10F M46I D60E I84V)", "mutations": "PR-L10F M46I D60E I84V", "read by": "virus yield", "value": "60"}
{"structure": "C[C@H](Cn1cnc2c(N)ncnc21)OCP(=O)(O)O", "strain": "HXB2", "mutations": "T66I", "read by": "recombinant virus assay / single cycle", "setting": "pseudotyped", "value": "1"}
{"structure": "Cc1cn([C@H]2C[C@H](N=[N+]=[N-])[C@@H](CO)O2)c(=O)[nH]c1=O", "strain": "IIIB", "mutations": "8374-P36", "read by": "ATP", "value": "0.4"}
{"structure": "O=c1[nH]cnc2c1ncn2[C@H]1CC[C@@H](CO)O1", "strain": "HxB2-MT 65 (RT-K65R", "mutations": "RT-K65R", "read by": "p24 / ELISA", "value": "8.6"}
{"structure": "Cc1cn([C@H]2C[C@H](N=[N+]=[N-])[C@@H](CO)O2)c(=O)[nH]c1=O", "strain": "HXB2D (RT D67N K70R T215Y)", "mutations": "RT-D67N K70R T215Y", "value": "24.4"}
{"structure": "Nc1ncnc2c1ncn2CCOCP(=O)(O)O", "strain": "LAI", "mutations": "RT-K65R", "read by": "p24", "value": ">4.3"}
{"structure": "Cc1ccnc2c1NC(=O)c1cccnc1N2C1CC1", "strain": "HX(RT-S156A)", "mutations": "RT-S156A", "read by": "RT activity", "value": "0.222"}
{"structure": "Nc1ccn([C@H]2CC[C@@H](CO)O2)c(=O)n1", "strain": "L214F(RT-L214F)", "mutations": "RT-L214F", "read by": "p24", "value": "1.2"}
{"structure": "Nc1ccn([C@H]2CC[C@@H](CO)O2)c(=O)n1", "strain": "RT-T69G K103N", "mutations": "RT-T69G K103N)", "read by": "p24", "value": "4.3"}
{"structure": "Nc1nc2c(ncn2[C@H]2CO[C@@H](CO)O2)c(=O)[nH]1", "mutations": "RT-K65R Q151M", "read by": "cytopathic effect / XTT", "value": "20.5"}
{"structure": "Nc1nc(=O)n([C@@H]2CO[C@H](CO)S2)cc1F", "strain": "HXB2D (RT-M184V)", "mutations": "RT-M184V", "read by": "RT activity", "value": ">15.15"}
{"structure": "O=c1[nH]cnc2c1ncn2[C@H]1CC[C@@H](CO)O1", "strain": "M184V(RT-M184V)", "mutations": "RT-M184V", "read by": "p24", "value": "1.9"}
{"structure": "O=c1[nH]cnc2c1ncn2[C@H]1CC[C@@H](CO)O1", "strain": "HX(RT-S156A)", "mutations": "RT-S156A", "read by": "RT activity", "value": "1.125"}
{"structure": "Nc1ncnc2c1ncn2[C@@H]1O[C@H](CO)C[C@@H]1F", "strain": "RT P119S L214F", "mutations": "RT-P119S L214F", "read by": "p24", "value": "2.8"}
{"structure": "CC(C)OC(=O)OCOP(=O)(CO[C@H](C)Cn1cnc2c(N)ncnc21)OCOC(=O)OC(C)C", "strain": "1391-4 high AZT resistance (RT D67 K70 T215)", "mutations": "RT-D67 K70 T215", "read by": "p24", "value": "0.284"}
{"structure": "Nc1nc2c(ncn2[C@H]2CO[C@@H](CO)O2)c(=O)[nH]1", "strain": "LAI", "mutations": "RT-L74V", "read by": "p24", "value": "4.2"}
{"structure": "CCOP(=O)(COc1ccc(C[C@H](NC(=O)O[C@H]2CO[C@H]3OCC[C@H]32)[C@H](O)CN(CC(C)C)S(=O)(=O)c2ccc(OC)cc2)cc1)OCC", "strain": "IIIB", "mutations": "PLV-P31 LVP-resistant mutant", "read by": "ATP", "value": "0.5"}
{"structure": "Cc1cn([C@H]2C[C@H](N=[N+]=[N-])[C@@H](CO)O2)c(=O)[nH]c1=O", "strain": "R82150 (RT-L100I)", "mutations": "RT-L100I", "read by": "cytopathic effect", "value": "0.857"}

Fold resistance has wild type as its base.